Anti-infective test results gathered from many reports (values: NIAID ChemDB through PubChem).

Common to all: tests on isolated targets; agent: Toxoplasma gondii; target: DHFR; measure: IC50

Rows are shuffled and stem from different studies. ICn is the concentration giving n% inhibition.

compound | value
COc1ncnc(NS(=O)(=O)c2ccc(N)cc2)c1OC | 110 µM
CCCCCCc1nc2nc(N)nc(N)c2nc1CCCCCC | 46 µM
Nc1ccc(S(=O)(=O)c2ccc(N)c(Cl)c2)cc1 | 0.81 µM
Nc1nc(N)c2nc(CCc3ccc(C(F)(F)F)cc3)cnc2n1 | 1.5 µM
Nc1nc(N)c2nc(CCCc3ccccc3)c(CCCc3ccccc3)nc2n1 | 1 µM
Cc1noc(NS(=O)(=O)c2ccc(N)cc2)c1C | 17 µM
Nc1nc(N)c2c3c(sc2n1)CCCCCCCCCC3 | 0.85 µM
COc1cccc2nc(N)nc(N)c12 | 0.48 µM
Cc1nnc(NS(=O)(=O)c2ccc(N)cc2)s1 | 7.9 µM
Nc1nc(N)c2nc(CCc3ccc4ccccc4c3)cnc2n1 | 0.32 µM
COc1ccc(OC)c(N(C)Cc2cnc3nc(N)nc(N)c3c2C)c1 | 0.016 µM
COc1ccc(OC)c(CCc2cnc3nc(N)nc(N)c3n2)c1 | 2.8 µM
COc1cc(N(C)Cc2csc3nc(N)nc(N)c23)cc(OC)c1OC | >10 µM
CCc1nc2nc(N)nc(N)c2nc1CC | 1 µM
Nc1nc(N)c2cc(C(F)(F)F)ccc2n1 | 3.1 µM
Nc1nc(N)c2nc(CCc3cccs3)cnc2n1 | 1 µM
COc1ccc2nc(N)nc(N)c2c1 | 22 µM
Nc1ccc(S(=O)(=O)c2ccc(NCCO)cc2)cc1 | 0.35 µM
Nc1nc(N)c2ccc(Cl)cc2n1 | 81 µM
Cl.Nc1nc(N)c2nc(CCc3ccncc3)cnc2n1 | 6.39 µM
Nc1nc(N)c2nc(Cc3ccc4ccccc4c3)c(Cc3ccc4ccccc4c3)nc2n1 | >31 µM
CC(=O)NS(=O)(=O)c1ccc(N)cc1 | 42 µM

For reference, 3 entries again:

{"compound": "Nc1nc(N)c2nc(Cc3ccc4ccccc4c3)c(Cc3ccc4ccccc4c3)nc2n1", "value": ">31 µM"}
{"compound": "Nc1nc(N)c2ccc(Cl)cc2n1", "value": "81 µM"}
{"compound": "COc1cccc2nc(N)nc(N)c12", "value": "0.48 µM"}